Compound potency records, mixed from different reports. Data source: NIAID ChemDB in PubChem.

All rows: growth or infection tests; agent: Human cytomegalovirus

An empty or dashed field is not shown.

SMILES	tested at	endpoint	strain	cell line	setting	method	value
COc1ccc2c(c1)c(CC(=O)O)c(C)n2C(=O)c1ccc(Cl)cc1	500 µM	inhibition	AD169	HFF			5%
C[C@H]1O[C@@H](n2c(Br)nc3cc(Cl)c(Cl)cc32)[C@H](O)[C@@H]1O	3 µM	inhibition	Isolate C4 mutations D344E + Q204R	HFF		virus yield	90%
CN(Cc1cnc2nc(N)nc(N)c2n1)c1ccc(C(=O)N[C@@H](CCC(=O)O)C(=O)O)cc1	0.2 µM	inhibition	TOWNE	MRC-5	24 h		45%
NC(=S)N/N=C/c1ncnc2nc[nH]c12		EC75		WI-38		cytopathic effect	<100 µg/mL
Nc1nc2c(ncn2COC(CO)CO)c(=O)[nH]1		EC50	C8302	MRC-5		hybridisation	0.3 µM
Nc1nc2c(ncn2[C@@H]2C[C@H](CO)[C@H](O)[C@H]2O)c(=O)[nH]1	32 µg/mL	inhibition	AD169	MRC-5		cytopathic effect	25%
Nc1nc2c(ncn2COC(CO)CO)c(=O)[nH]1		EC75	AD169 (ganciclovir foscarnet-susceptible)	MRC-5		plaque count	4.99 µM
O=C(NCc1ccc(Cl)cc1)c1c[nH]c2c(F)cccc2c1=O		EC90	AD169			plaque count	27.1 µM
CC/C=C\Cn1c(=O)sc2c(=O)[nH]c(N)nc21	40 µM	inhibition	TOWNE				60%
Nc1nc2c(ncn2COC(CO)CO)c(=O)[nH]1		EC50	C8805-37 (ganciclovir-resistant)	MRC-5		plaque count	12 µg/mL
O=C(NCc1ccc(Cl)cc1)c1c[nH]c2c(F)cc(CCCO)cc2c1=O		EC90	759rD100			plaque count	2.1 µM
Nc1ncnc2c1ncn2C=C1CC1CO		EC90	VR4991 (ganciclovir-resistant)			plaque count	4.9 µM
OC[C@@H]1O[C@@H](n2c(Cl)nc3cc(Cl)c(Cl)cc32)[C@H](O)[C@@H]1O		EC90	TOWNE	HFF		virus yield	5.9 µM
Nc1nc2c(ncn2[C@@H]2C[C@H](CO)[C@H]2CO)c(=O)[nH]1		EC75	PAAR	MRC-5		plaque count	12.29 µM
O[C@@H]1[C@H](O)CO[C@H]1n1c(Cl)nc2cc(Cl)c(Cl)cc21		EC90	TOWNE	HFF		virus yield	0.46 µM
COc1cccc(N2CCN(C3=Nc4c(F)cccc4[C@H](CC(=O)O)N3c3cc(C(F)(F)F)ccc3OC)CC2)c1		EC50	Clinical isolate 7			plaque count	0.001 µM
Cc1nc(N2CCOC[C@@H]2C)nc(-n2ccnc2)c1[N+](=O)[O-]		MIC	Laboratory and clinical isolates				0.3–1 µg/mL
CC(C)Nc1nc2cc(Cl)c(Cl)cc2n1[C@H]1O[C@@H](CO)[C@H](O)[C@@H]1O		EC90	C4 (BDCRB-resistant)	HFF		virus yield	2.9 µM
Cn1cc(C(=O)NCc2ccc(Cl)cc2)c(=O)c2cc(CN3CCOCC3)ccc21	5.4 µM	inhibition	SC	HFF		plaque count	90%
Nc1ccn(C[C@@H](CO)OCP(=O)(O)O)c(=O)n1.O=C(O)P(=O)(O)O		EC75	PAAR	MRC-5		plaque count	1.11 µM
CC(C)Nc1nc2cc(Cl)c(Cl)cc2n1[C@H]1O[C@@H](CO)[C@H](O)[C@@H]1O		EC50	C9207	MRC-5		hybridisation	0.03 µM
O=c1[nH]c(=O)n([C@H]2C[C@H](O)[C@@H](CO)O2)cc1/C=C/Br	75 µM	inhibition		HEL		plaque count	53%
CCSc1ncnc2c1ncn2[C@@H]1OC2COP(=O)(O)OC2[C@H]1O		MIC					3.2 µg/mL
Nc1nc2c(ncn2C[C@@H]2CC[C@@H](P(=O)(O)O)O2)c(=O)[nH]1		EC50	4760RECPOLA1-1-1 (foscarnet-resistant)	HFF		plaque count	0.2 µg/mL
O=C(O)P(=O)(O)O		EC75	AD169 (ganciclovir foscarnet-susceptible)	MRC-5		plaque count	86.56 µM
Oc1ccc(-c2nc(-c3ccc(F)cc3)c(-c3ccncc3)[nH]2)cc1	100 µM	inhibition	TOWNE	HEL		plaque count	>95%
O=C(NCc1ccc(Cl)cc1)c1c[nH]c2ccc(CCCO)cc2c1=O		EC50	HAR			plaque count	0.6 µM
Nc1nc2c(ncn2COCCO)c(=O)[nH]1	10 µM	inhibition		HEL		plaque count	23.8%
Nc1nc2c(ncn2COC(CO)CO)c(=O)[nH]1		EC90	C4 (BDCRB-resistant)	HFF		virus yield	1.6 µM
O=P1(O)OCC2O[C@@H](n3cnc4c(NO)ncnc43)[C@H](O)C2O1		MIC					10 µg/mL
Nc1nc2c(ncn2COC(CO)CO)c(=O)[nH]1		EC90	TOWNE	HFF		virus yield	4.4 µM
Brc1cccc(Nc2ncnc3ccccc23)c1	3 µM	inhibition	AD169	HFF		plaque count	70%
C[C@@H]1O[C@@H](n2c(Cl)nc3cc(Cl)c(Cl)cc32)[C@H](O)[C@@H]1O		EC90	2916 (bdcrb maribavir-resistant)	HFF		virus yield	0.7 µM
OC[C@H]1O[C@@H](n2c(Cl)nc3cc(Cl)c(Cl)cc32)[C@H](O)[C@@H]1O		EC95	TOWNE			virus yield	1.1 µM
Brc1ccc(Nc2ncnc3ccccc23)cc1	1.1 µM	inhibition	AD169-GFP	HFF		plaque count	7%
Cc1nc2ccc(CN(C)c3ccc(C(=O)N[C@@H](CCC(=O)O)C(=O)O)s3)cc2c(=O)[nH]1	0.009 µM	inhibition				virus yield	90%

ECn: concentration that inhibits the pathogen or its effect by n%. a–b is a range or a potency band. Percent inhibition refers to the dose given; in toxicity tests it is the harm to the cells. Conditions beyond the fields shown may differ between rows.